# Share of PSTVd stem 3 variants by leaf site

Data from the supplement of Wu et al. 2024, doi:10.1371/journal.ppat.1012142.

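A pool of all variants was put on leaves of three Nicotiana benthamiana plants. Samples came from the inoculated region at 5 days, the leaf margin at 10 and upper systemic leaves at 12.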

The pool varies stem 3 of the PSTVd intermediate strain in the pattern GUGGUUCCGNANNCNN; wild type is GUGGUUCCGGAACCGC (upper and lower strand joined, each 5' to 3', the first 8 letters being the upper strand).

Values are reads per thousand in the sample; higher means more abundant, 0 means not found.
Each value is the mean of three plants.
"Pool" is the share in the plasmid pool used as inoculum, on the same scale.
The inoculated region was read from the minus strand, the other sites from the plus strand.
IR is the inoculated region, LM the leaf margin, Sys the systemic leaves.
For reference, wild type rose from 17.3 per thousand in the pool to 330, 345, 235 (inoculated region), 794, 766, 816 (leaf margin) and 830, 792, 869 (systemic leaves).

GUGGUUCCGUAUUCUG (pool 2.39) gave IR 1.35; LM 0.0106; Sys 0.173. For GUGGUUCCGGAAUCAU (pool 0.954) the result was IR 0.822; LM 0.00944; Sys 0. With GUGGUUCCGGACACAC (pool 0.739) the assay gave IR 0.326; LM 0.0226; Sys 0. GUGGUUCCGCAAACGC (pool 0.800) read IR 0.280; LM 0.0106; Sys 0. For GUGGUUCCGAAGUCAU (pool 1.66) the result was IR 1.03; LM 0.951; Sys 1.11. GUGGUUCCGAAAUCGG (pool 1.12) gave IR 0.983; LM 0.0562; Sys 0.

GUGGUUCCGCACGCCU (pool 1.15) read IR 0.462; LM 0.0120; Sys 0. With GUGGUUCCGUAUCCAG (pool 0.785) the assay gave IR 0.377; LM 0.0226; Sys 0. GUGGUUCCGGAGACUG (pool 1.66) read IR 0.554; LM 0; Sys 0.0392. GUGGUUCCGCAAUCCC (pool 1.11) read IR 0.726; LM 0; Sys 0.0430. GUGGUUCCGGAGUCGA (pool 0.662) gave IR 0.680; LM 0.142; Sys 0. GUGGUUCCGAAGUCCA (pool 1.35) gave IR 1.01; LM 0.982; Sys 1.08.

For GUGGUUCCGUACUCAG (pool 1.06) the result was IR 0.726; LM 0; Sys 0. GUGGUUCCGGAAGCGU (pool 0.877) gave IR 0.344; LM 0.0226; Sys 0. With GUGGUUCCGGAACAGC (pool 0.123) the assay gave IR 0.473; LM 0.708; Sys 0.621. With GUGGUUCCGGAGCCCU (pool 1.05) the assay gave IR 0.703; LM 0.0106; Sys 0. GUGGUUCCGGAGUCCG (pool 0.862) gave IR 0.773; LM 0; Sys 0. For GUGGUUCCGUAGGCCU (pool 0.908) the result was IR 0.853; LM 0; Sys 0.

GUGGUUCCGUAUACAU (pool 1.54) read IR 1.09; LM 0.0215; Sys 0.00615. GUGGUUCCGACCAGGA (pool 0.0308) read IR 0; LM 0; Sys 0. GUGGUUCCGAAGCCGU (pool 1.00) gave IR 0.736; LM 1.35; Sys 1.20. GUGGUUCCGAACACCG (pool 0.785) read IR 0.721; LM 0.176; Sys 0. With GUGGUUCCGUACCCUG (pool 0.816) the assay gave IR 0.383; LM 0.0226; Sys 0. For GUGGUUCCGGACACAG (pool 0.646) the result was IR 0.362; LM 0.0413; Sys 0.

GUGGUUCCGCAAGCGA (pool 2.14) read IR 0.990; LM 0.0120; Sys 0.0373.

Extract of 2 entries:

- GUGGUUCCGCAAACGC (pool 0.800) -> IR 0.280; LM 0.0106; Sys 0
- GUGGUUCCGAAGCCGU (pool 1.00) -> IR 0.736; LM 1.35; Sys 1.20

The authors trace changes outside the varied positions to PCR and sequencing errors or to mutation in the plant; presence does not show that a variant is infectious alone.
Samples held 27,691 to 54,225 reads, so the smallest values rest on one or two reads.